Compound potency records, mixed from different reports. Data source: NIAID ChemDB in PubChem.

Shared fields: tests on isolated targets; organism: HIV-1; target: Integrase; read by: strand transfer; endpoint: IC50

Two numbers with a dash give a range or band. Neighbouring rows are from separate reports. ICn: concentration for n% inhibition.

smiles | value
Cc1cc(=O)n(-c2ccccc2)n1C(=O)c1ccco1 | 450 µM
O=C(O)/C=C/c1ccc(N=Nc2c(S(=O)(=O)O)cc3cc(NC(=O)C(=O)Nc4ccc5c(O)c(N=Nc6ccc(/C=C/C(=O)O)cc6)c(S(=O)(=O)O)cc5c4)ccc3c2O)cc1 | 2.3 µM
N#C/C(=C\c1ccc(O)c(O)c1)C(=O)NCc1ccccc1 | 10–100 µM
CCOC(=O)c1cn2c(c1O)C(=O)N(Cc1ccccc1)CC2 | <0.7 µM
Cc1cc(C(C)(C)C)cc(Cc2cc(C(C)(C)C)cc(Cc3cc(C(C)(C)C)cc(Cc4cc(C(C)(C)C)cc(C)c4OCC(=O)/C=C(\O)c4ccccc4)c3O)c2OCC(=O)/C=C(\O)c2ccccc2)c1O | >50 µM
N#Cc1ccccc1-c1ccc(CSc2nc3ccccc3s2)cc1 | >1000 µM
Cc1ccc(CN(C(=O)/C=C(\O)C(=O)O)c2ccc(F)cc2)cc1 | <70 µM
O=c1nc(NCc2ccc(-c3ccccn3)s2)c2cccnc2n1O | 1.778 µM
N#C/C(=C\c1ccc(O)c(O)c1)C(=O)NCCCCCNC(=O)/C(C#N)=C/c1ccc(O)c(O)c1 | 5–10 µM
CC1(C)OCCn2c1nc(C(=O)NCc1cc(F)ccc1Cl)c(O)c2=O | 0.02–0.1 µM
CNC(=O)c1cc(F)ccc1CNC(=O)c1nc(N2CCCCS2(=O)=O)c2cccnc2c1O | <0.5 µM
Nc1ncnc2c1ncn2[C@@H]1CO[C@H](COP(=O)(O)O)C1 | >200 µM
O=C1C(=O)N(Cc2ccc([N+](=O)[O-])cc2)c2ccccc21 | 333 µM
O=C(O)/C=C/c1ccc(N=Nc2c(S(=O)(=O)O)cc3cc(S(=O)(=O)O)c(N=Nc4ccc(/C=C/C(=O)O)cc4)c(O)c3c2O)cc1 | 0.75 µM
CCOC(=O)c1cn2c(c1O)C(=O)N(Cc1cccc(Cl)c1)CC2 | <0.7 µM
Cc1ccc(/C(O)=C/C(=O)COc2c(C)cccc2Cc2cccc(Cc3cccc(Cc4cccc(C)c4O)c3OCC(=O)/C=C(\O)c3ccc(C)cc3)c2O)cc1 | 13.1 µM
O=C(O)c1ccc(N=Nc2c(S(=O)(=O)O)cc3cc(S(=O)(=O)O)c(N=Nc4ccc(C(=O)O)cc4)c(O)c3c2O)cc1 | 3.5 µM
CNC(=O)c1cn2c(c1O)C(=O)N(Cc1ccc(Cl)c(Cl)c1)CC2 | <1.5 µM
N#C/C(=C\c1ccc(O)c(O)c1)C(=O)c1ccc(O)c(O)c1 | 0.5 µM
CNC(=O)c1cc(F)ccc1CNC(=O)c1nc(N2CCCN(C)S2(=O)=O)c2cccnc2c1O | <0.5 µM
O=C(O)c1cn2c(c1O)C(=O)N(Cc1ccc(F)cc1)CC2 | <0.7 µM
O=S(=O)(Nc1ccccc1C(F)(F)F)c1cccc2cnccc12 | 1000 µM
Oc1ccc(/C=C/c2ccc(O)c(O)c2)cc1O | 1 µM
CN1CCCCn2c(c3ncn(Cc4ccc(F)c(Cl)c4)c(=O)c3c(O)c2=O)C1=O | 0.03 µM
CN(Cc1ccccc1-c1ccccc1)C(=O)/C=C(\O)C(=O)O | <70 µM
N#C/C(=C\c1ccc(O)c(O)c1)C(=O)NC1CCC(CC2CCC(NC(=O)/C(C#N)=C/c3ccc(O)c(O)c3)CC2)CC1 | 3 µM
CCO/C(CC(=O)NCc1ccc(Br)cc1)=N\Nc1ccccc1[N+](=O)[O-] | >250 µM
Cc1cc2c(c3c4ccccc4n(C)c13)C(=O)N(CCN(C)C)C2=O | >100 µM
O=C(O)/C=C/c1cc(CCc2ccccc2)ncn1 | >100 µg/mL
CN(C(=O)/C=C(\O)C(=O)O)C(c1ccc(Cl)cc1)c1ccc(Cl)cc1 | <70 µM
Cc1cccc(Cc2cccc(Cc3cccc(Cc4cccc(C)c4OCC(=O)/C=C(\O)c4ccc(F)cc4)c3O)c2OCC(=O)/C=C(\O)c2ccc(F)cc2)c1O | 13.4 µM
O=C(/C=C(\O)c1ccc(Cc2ccc(F)cc2)o1)c1ccco1 | >100 µg/mL
COc1cc(C(=O)O)ccc1N=Nc1c(S(=O)(=O)O)cc2cc(NC(=O)Nc3ccc4c(O)c(N=Nc5ccc(C(=O)O)cc5OC)c(S(=O)(=O)O)cc4c3)ccc2c1O | 0.7 µM
O=C(O)c1ccc(C2=C(c3ccc(C(=O)O)o3)C(=O)N(c3ccc(O)cc3)C2=O)o1 | 3 µM
Cc1cc2c(c3c1[nH]c1cc(F)c(O)cc13)C(=O)N(CCN(C)C)C2=O | >100 µM
CN(C(=O)/C=C(\O)C(=O)O)C(c1ccc(F)cc1)c1cccnc1 | <70 µM
O=C(Nc1ccc2c(O)c(N=Nc3cccc(C(=O)O)c3)c(S(=O)(=O)O)cc2c1)Nc1ccc2c(O)c(N=Nc3cccc(C(=O)O)c3)c(S(=O)(=O)O)cc2c1 | 0.5 µM
CCNC(=O)c1cc(F)ccc1CNC(=O)c1nc(N2CCCCS2(=O)=O)c2cccnc2c1O | <0.5 µM
N#C/C(=C\c1cc(O)c(O)c(O)c1)C(N)=O | 5–10 µM
O=C1NC(=O)C(c2ccc(C(=O)O)o2)=C1c1ccc(C(=O)O)o1 | 58 µM
Cc1cc(C(C)(C)C)cc(Cc2cc(C(C)(C)C)cc(Cc3cc(C(C)(C)C)cc(Cc4cc(C(C)(C)C)cc(C)c4OCC(=O)/C=C(\O)c4ccc(F)cc4)c3O)c2OCC(=O)/C=C(\O)c2ccc(F)cc2)c1O | >50 µM
O=C(O)c1cn2c(c1O)C(=O)N(Cc1cccc(Cl)c1)CC2 | <0.7 µM
COc1ccc2[nH]c3c(C)cc4c(c3c2c1)C(=O)N(CCN(C)C)C4=O | >100 µM
CNC(=O)c1cc(F)ccc1CNC(=O)c1nc(N(C)S(C)(=O)=O)c2cccnc2c1O | <0.5 µM
O=C(O)/C(O)=C/C(=O)N(Cc1ccc2ccccc2c1)c1ccc(Cl)cc1 | <70 µM
N#Cc1ccccc1-c1ccc(CN2C(=O)C(=O)c3ccccc32)cc1 | >1000 µM
Cc1ccc(Cn2c3ccccc3c3cc(C(=O)NO)ncc32)cc1 | >50 µM
Cc1cn([C@H]2C[C@H](O)[C@@H](COP(=O)(O)O[C@H]3[C@H](n4cnc5c(N)ncnc54)CO[C@@H]3COP(=O)(O)O)O2)c(=O)nc1N | 50 µM
CCOC(=O)c1cn2c(c1O)C(=O)N(Cc1ccc(F)cc1)CC2 | <0.7 µM
CCO/C(CC(=O)NCc1ccc(C)cc1)=N\Nc1ccccc1[N+](=O)[O-] | >250 µM
Cc1cc(/C(O)=C/c2cc(CCc3ccccc3)ncn2)co1 | 0.84 µg/mL
COc1ccc(/C(O)=C/C(=O)COc2c(C)cc(C(C)(C)C)cc2Cc2cc(C(C)(C)C)cc(Cc3cc(C(C)(C)C)cc(Cc4cc(C(C)(C)C)cc(C)c4O)c3OCC(=O)/C=C(\O)c3ccc(OC)cc3)c2O)cc1 | >50 µM
CCO/C(CC(=O)NCc1ccc(F)cc1)=N\Nc1ccccc1[N+](=O)[O-] | >250 µM
Cc1cc(=O)n(-c2ccccc2)n1C(=O)/C=C/c1ccco1 | 650 µM